In patent US9617289B2, “RSV antiviral compounds” (JANSSEN R&D IRELAND, priority 2012, dated 2017):

What follows are compounds tested on HeLa cells (assay: Cytotoxicity in HeLa cells (ATP content, ATPlite kit); SI calculated as CC50/EC50). Settings: SI is calculated as CC50/EC50, three days.
Assay type: cell-based

| SMILES | SI | SI_TOX-HELA_wt |
| --- | --- | --- |
| CC(C)(C)OC(=O)N1CCC2(CC1)C(=O)N(Cc1cc3nc(Cl)ccc3n1CCCCF)c1cnccc12 [Compound 69, tert-butyl 1′-((5-chloro-1-(4-fluorobutyl)-1H-pyrrolo[3,2-b]-pyridin-2-yl)methy)-2′-oxo-1′,2′-dihydrospiro[piperidine-4,3′-pyrrolo[2,3-c]pyridine]-1-carboxylate] | 4891 | – |
| CC(C)(C)OC(=O)N1CC2(C1)C(=O)N(Cc1nc3cc(Cl)ccc3n1CCCC#N)c1ccccc12 [Compound 70, tert-butyl 1′-((5-chloro-1-(3-cyanopropyl)-1H-benzo[d]-imidazol-2-yl)methyl)-2′-oxospiro[azetidine-3,3′-indoline]-1-carboxylate] | >325484 and >313148 | – |
| O=C1N(Cc2nc3cc(Cl)ccc3n2CCCC(F)(F)F)c2cc(F)ccc2C12CCOCC2 [Compound 71, 1-((5-chloro-1-(4,4,4-trifluorobutyl)-1H-benzo[d]imidazol-2-yl)methyl)-6-fluoro-2′,3′,5′,6′-tetrahydrospiro[indoline-3,4′-pyran]-2-one] | 12968 | – |
| CC(=O)N1CC2(C1)C(=O)N(Cc1nc3cc(Cl)ccc3n1CCCS(C)(=O)=O)c1ccccc12 [Compound 72, 1-acetyl-1′-((5-chloro-1-(3-(methylsulfonyl)propyl)-1H-benzo[d]imidazol-2-yl)methyl)spiro[azetidine-3,3′-indolin]-2′-one] | >405070 | – |
| CC(C)(O)C(=O)N1CC2(C1)C(=O)N(Cc1cc3cc(Cl)ccc3n1CCCC#N)c1ccccc12 [Compound 73, 4-(5-chloro-2-((1-(2-hydroxy-2-methylpropanoyl)-2′-oxospiro[azetidine-3,3′-indolin]-1′-yl)methyl)-1H-indol-1-yl)butanenitrile] | 51488 | – |
| CC(C)(O)C(=O)N1CCC2(CC1)C(=O)N(Cc1cc3cc(Cl)ccc3n1CCCS(C)(=O)=O)c1cnccc12 [Compound 74, 1′-((5-chloro-1-(3-(methylsulfonyl)propyl)-1H-indol-2-yl)-methyl)-1-(2-hydroxy-2-methylpropanoyl)spiro[piperidine-4,3′-pyrrolo[2,3-c]pyridin]-2′(1′H)-one] | 342437 | – |
| O=C1N(Cc2nc3nc(Cl)ccc3n2CCCC(F)(F)F)c2cnccc2C12CCOCC2 [Compound 75, 1′-((5-chloro-1-(4,4,4-trifluorobutyl)-1H-imidazo[4,5-b]-pyridin-2-yl)methyl)-2,3,5,6-tetrahydrospiro[pyran-4,3′-pyrrolo[2,3-c]pyridin]-2′(1′H)-one] | >21707.5 | – |
| COC(=O)N1CCC2(CC1)C(=O)N(Cc1cc3cc(Cl)ccc3n1CCCC#N)c1cnccc12 [Compound 76] | >263057 | – |
| CC(C)OC(=O)N1CCC2(CC1)C(=O)N(Cc1cc3cc(Cl)ccc3n1CCCC#N)c1cnccc12 [Compound 77, isopropyl 1′-((5-chloro-1-(3-cyanopropyl)-1H-indol-2-yl)-methyl)-2′-oxo-1′,2′-dihydrospiro[piperidine-4,3′-pyrrolo-[2,3-c]pyridine]-1-carboxylate] | >96511.7 | – |
| N#CCCCn1c(CN2C(=O)C3(CCNCC3)c3ccncc32)cc2cc(Cl)ccc21 [Compound 78, 4-(5-chloro-2-((2′-oxospiro[piperidine-4,3′-pyrrolo[2,3-c]-pyridin]-1′(2′H)-yl)methyl)-1H-indol-1-yl)butanenitrile hydrochloride] | 24938 | – |
| N#CCCCn1c(CN2C(=O)C3(CCN(C(=O)OC4COC4)CC3)c3ccncc32)cc2cc(Cl)ccc21 [Compound 80, oxetan-3-yl 1′-((5-chloro-1-(3-cyanopropyl)-1H-indol-2-yl)-methyl)-2′-oxo-1′,2′-dihydro[spiropiperidine-4,3′-pyrrolo-[2,3-c]pyridine]-1-carboxylate] | >319161 | – |
| N#CCCCn1c(CN2C(=O)C3(CCN(S(=O)(=O)C4CC4)CC3)c3ccncc32)cc2cc(Cl)ccc21 [Compound 81, 4-(5-chloro-2-((1-(cyclopropylsulfonyl)-2′-oxospiro-[piperidine-4,3′-pyrrolo[2,3-c]pyridin]-1′(2′H)-yl)methyl)-1H-indol-1-yl)butanenitrile] | >655360 | – |
| N#CCCCn1c(CN2C(=O)C3(CCN(C(=O)OC4COC4)CC3)c3ccncc32)nc2cc(Cl)ccc21 [Compound 82, oxetan-3-yl 1′-((5-chloro-1-(3-cyanopropyl)-1H-benzo[d]-imidazol-2-yl)methyl)-2′-oxo-1′,2′-dihydrospiro[piperidine-4,3′-pyrrolo[2,3-c]pyridine]-1-carboxylate] | >655360 | – |
| CC(=O)N1CCC2(CC1)C(=O)N(Cc1nc3cc(Cl)ccc3n1CCCC#N)c1cnccc12 [Compound 83, 4-(2-((1-acetyl-2′-oxospiro[piperidine-4,3′-pyrrolo[2,3-c]-pyridin]-1′(2′H)-yl)methyl)-5-chloro-1H-benzo[d]imidazol-1-yl)butanenitrile] | >655360 | – |
| N#CCCCn1c(CN2C(=O)C3(CCNCC3)c3ccncc32)nc2cc(Cl)ccc21 [Compound 84, 4-(5-chloro)-2-((2′-oxospiro[piperidine-4,3′-pyrrolo[2,3-c]-pyridin]-1′(2′H)-yl)methyl)-1H-benzo[d]imidazol-1-yl)butanenitrile hydrochloride] | >176673 | – |
| CS(=O)(=O)CCCn1c(CN2C(=O)C3(CCN(S(=O)(=O)C4CC4)CC3)c3ccncc32)nc2cc(Cl)ccc21 [Compound 85, 1′-((5-chloro-1-(3-(methylsulfonyl)propyl)-1H-benzo[d]-imidazol-2-yl)methyl)-1-(cyclopropylsulfonyl)spiro-[piperidine-4,3′-pyrrolo[2,3-c]pyridin]-2′(1′H)-one] | >655360 | – |
| CC(C)(O)C(=O)N1CCC2(CC1)C(=O)N(Cc1cc3cc(Cl)ccc3n1CCCC#N)c1cnccc12 [Compound 86, 4-(5-chloro-2-((1-(2-hydroxy-2-methylpropanoyl)-2′-oxospiro[piperidine-4,3′-pyrrolo[2,3-c]pyridin]-1′(2′H)-yl)methyl)-1H-indol-1-yl)butanenitrile] | >349849 | – |
| CC(=O)N1CC2(C1)C(=O)N(Cc1nc3cc(Cl)ccc3n1CCCC#N)c1ccccc12 [Compound 88, 4-(2-((1-acetyl-2′-oxospiro[azetidine-3,3′-indolin]-1′-yl)-methyl)-5-chloro-1H-benzo[d]imidazol-1-yl)butanenitrile] | >253700 | – |
| N#CCCCn1c(CN2C(=O)C3(CCN(S(N)(=O)=O)CC3)c3ccncc32)nc2cc(Cl)ccc21 [Compound 89, 1′-((5-chloro-1-(3-cyanopropyl)-1H-benzo[d]imidazol-2-yl)-methyl)-2′-oxo-1′,2′-dihydrospiro[piperidine-4,3′-pyrrolo-[2,3-c]pyridine]-1-sulfonamide] | >124385 | – |
| CS(=O)(=O)CCCn1c(CN2C(=O)C3(CCN(C(=O)C4CC4)CC3)c3ccncc32)nc2cc(Cl)ccc21 [Compound 90, 1′-({5-Chloro-1-[3-(methylsulfonyl)propyl]-1H-benzimidazol-2-yl}methyl)-1-(cyclopropylcarbonyl)spiro[piperidine-4,3′-pyrrolo[2,3-c]pyridin]-2′(1′H)-one] | – | >2.14e+006 |
| N#CCCCn1c(CN2C(=O)C3(CN(S(=O)(=O)c4cccs4)C3)c3ccccc32)nc2cc(Cl)ccc21 [Compound 91] | – | >428924 |
| N#CCCCn1c(CN2C(=O)C3(CN(C(=O)OC4COC4)C3)c3ccccc32)nc2cc(Cl)ccc21 [Compound 92, Oxetan-3-yl 1′-{[5-chloro-1-(3-cyanopropyl)-1H-benzimidazol-2-yl]methyl}-2′-oxo-1′,2′-dihydro-1H-spiro[azetidine-3,3′-indole]-1-carboxylate] | – | >1.435e+006 |
| N#CCCCn1c(CN2C(=O)C3(CN(S(=O)(=O)c4ccc(F)cc4)C3)c3ccccc32)nc2cc(Cl)ccc21 [Compound 93, 4-[5-Chroro-2-({1-[(4-fluorophenyl)sulfonyl]-2′-oxospiro-[azetidine-3,3′-indol]-1′(2′H)-yl}methyl)-1H-benzimidazol-1-yl]butanenitrile] | – | >62290.2 |
| CS(=O)(=O)N1CC2(C1)C(=O)N(Cc1nc3cc(Cl)ccc3n1CCCC#N)c1ccccc12 [Compound 94, 4-(5-Chloro-2-{[1-(methylsulfonyl)-2′-oxospiro[azetidine-3,3′-indol]-1′(2′H)-yl]methyl}-1H-benzimidazol-1-yl)-butanenitrile] | – | >770442 |
| CC(=O)NS(=O)(=O)N1CCC2(CC1)C(=O)N(Cc1nc3cc(Cl)ccc3n1CCCC#N)c1cnccc12 [Compound 95, N-[(1′-{[5-Chloro-1-(3-cyanopropyl)-1H-benzimidazol-2-yl]methyl}-2′-oxo-1′,2′-dihydro-1H-spiro[piperidine-4,3′-pyrrolo[2,3-c]pyridin]-1-yl)sulfonyl]acetamide] | – | >1.255e+006 |
| N#CCCCn1c(CN2C(=O)C3(CCN(S(=O)(=O)c4cccs4)CC3)c3ccncc32)cc2cc(Cl)ccc21 [Compound 96, 4-(5-Chloro-2-{[2′-oxo-1-(thiophen-2-ylsulfonyl)spiro-[piperidine-4,3′-pyrrolo[2,3-c]pyridin]-1′(2′H)-yl]methyl}-1H-indol-1-yl)butanenitrile] | – | >233222 |
| CC(C)CCn1c(CN2C(=O)C3(CCN(C(=O)OC(C)(C)C)CC3)c3ccncc32)cc2cnccc21 [Compound 97, tert-Butyl 1′-{[1-(3-methylbutyl)-1H-pyrrolo[3,2-c]pyridin-2-yl]methyl}-2′-oxo-1,2′-dihydro-1H-spiro[piperidine-4,3′-pyrrolo[2,3-c]pyridine]-1-carboxylate] | – | 31764 |
| COC(=O)N1CCC2(CC1)C(=O)N(Cc1nc3cc(Cl)ccc3n1CCCC#N)c1cnccc12 [Compound 98, Methyl 1′-{[5-chloro-1-(3-cyanopropyl)-1H-benzimidazol-2-yl]methyl}-2′-oxo-1′,2′-dihydro-1H-spiro[piperidine-4,3′-pyrrolo[2,3-c]pyridine]-1-carboxylate] | – | >1.465e+006 |
| CC(C)OC(=O)N1CCC2(CC1)C(=O)N(Cc1nc3cc(Cl)ccc3n1CCCC#N)c1cnccc12 [Compound 99, 1-Methylethyl 1′-{[5-chloro-1-(3-cyanopropyl)-1H-benzimidazol-2-yl]methyl}-2′-oxo-1′,2′-dihydro-1H-spiro[piperidine-4,3′-pyrrolo[2,3-c]pyridine]-1-carboxylate] | – | 2437755 |

Where “and” joins values, the source holds several entries; their conditions need not be identical. Equal entries are not always repeated. Structures can show the parent of a compound that is named as a salt. No dose or concentration is given here for some results.
